Assay results taken from patent US10112911B2, “Substituted cyanoguanidines as oral anti-virals” (Abbvie Inc, priority 2012, dated 2018).
Counter-ions that a name gives are not always drawn.

What follows are compounds tested on RSV (Group A, Long Strain) (assay: Cytopathetic effect (CPE) protection antiviral assay, MTT readout). Conditions: therapeutic window, ratio of MTT TD50 to RSV EC50 in HEp-2 cells.
Format: cell-based, respiratory syncytial virus (RSV)
Experimental: HEp-2 cells and RSV (Group A, Long Strain) were obtained from the American Type Culture Collection (Manassas, Va.).
A cytopathetic effect (CPE) protection assay was performed to determine the ability of a compound to protect the cells from viral infection and thus the CPE induced by viral infection. 96-Well plates were first seeded with […] per well in Dulbecco's modified Eagle's medium (DMEM) containing 10% fetal bovine serum (FBS). One day after the cells were seeded, they were preincubated with serial dilutions of compounds prepared in 100 μL assay medium (DMEM mixed with F12 medium at a 1:1 ratio, supplemented with 2% FBS and 1 mM sodium pyruvate) for 1 hour at 37° C. 100 μL of assay medium containing 0.2 multiplicity of infection (MOI) of RSV was then added to each well of cells. In addition to wells containing infected cells incubated with compounds, each plate also contained replicates of two kinds of controls: (1) Virus control contained cells infected with 0.2 MOI of RSV in assay medium, (2) Uninfected cell control contained cells incubated with assay medium only. After 4 days of incubation at 37° C., the viability of cells was assessed using MTT (Thiazolyl blue tetrazolium bromide, Sigma). A stock solution of MTT, at a concentration of 4 mg/mL in phosphate-buffered saline, was added to all wells at 25 μL per well. Plates were further incubated for 4 hours, and each well was then treated with 50 μL of a solution containing 20% sodium dodecyl sulfate (SDS) and 0.02 N HCl. After an overnight incubation, the plates were measured on a BioTek® microtiter plate reader at wavelengths of 570 nm and 650 nm. The MTT detection is based on the fact that viable (uninfected) cells can reduce the tetrazolium salts into colored formazan products, which can then be quantitated by spectrometry. Based on the spectrometric absorbance of each sample, the percent of protection from CPE, which is an indicator of protection from viral infection, can be calculated for each compound and the 50% effective concentrations (EC50) can be calculated using a nonlinear regression curve fitting equation provided by the GraphPad Prism® 4 software.
Compounds were tested to determine both their antiviral and toxicity to determine their therapeutic window. Determination of the EC50 and TD50 of these active compounds were repeated one additional time to confirm the window.

| SMILES | Window (TD50/EC50) |
| --- | --- |
| Cc1ccccc1NC(=NC#N)N1CCN(c2nccnc2C#N)CC1C(C)C (stereo not shown) [Example 1.1, N′-cyano-4-(3-cyanopyrazin-2-yl)-2-isopropyl-N-(2-methylphenyl)piperazine-1-carboximidamide] | >112 |
| COC(=O)c1cnc(N2CCN(C(=NC#N)Nc3ccccc3Cl)C(C(C)C)C2)cn1 (stereo not shown) [Example 1.2, methyl 5-{4-[N-(2-chlorophenyl)-N′-cyanocarbamimidoyl]-3-isopropylpiperazin-1-yl}pyrazine-2-carboxylate] | >88 |
| Cc1ccccc1N/C(=N/C#N)N1CCN(c2cnc3ccccc3n2)CC1C(C)C (stereo not shown) [Example 1.3, N′-cyano-2-isopropyl-N-(2-methylphenyl)-4-(quinoxalin-2-yl)piperazine-1-carboximidamide trifluoroacetate] | >128 |
| Cc1ccccc1NC(=NC#N)N1CCN(c2nc3ccccc3o2)CC1C(C)C (stereo not shown) [Example 1.4, 4-(1,3-benzoxazol-2-yl)-N′-cyano-2-isopropyl-N-(2-methylphenyl)piperazine-1-carboximidamide] | 25 |
| Cc1ccccc1NC(=NC#N)N1CCN(c2nc3cccc(Cl)c3o2)CC1C(C)C (stereo not shown) [Example 1.5, 4-(7-chloro-1,3-benzoxazol-2-yl)-N′-cyano-2-isopropyl-N-(2-methylphenyl)piperazine-1-carboximidamide] | >12.3 |
| Cc1ccccc1NC(=NC#N)N1CCN(c2nc3ccccc3s2)CC1C(C)C (stereo not shown) [Example 1.6, 4-(1,3-benzothiazol-2-yl)-N′-cyano-2-isopropyl-N-(2-methylphenyl)piperazine-1-carboximidamide] | >5.3 |
| Cc1ccc2oc(N3CCN(C(=NC#N)Nc4ccccc4C)C(C(C)C)C3)nc2c1 (stereo not shown) [Example 1.7, N′-cyano-2-isopropyl-4-(5-methyl-1,3-benzoxazol-2-yl)-N-(2-methylphenyl)piperazine-1-carboximidamide] | >12 |
| Cc1ccccc1NC(=NC#N)N1CCN(c2ncnc3ccccc23)CC1C(C)C (stereo not shown) [Example 1.8, N′-cyano-2-isopropyl-N-(2-methylphenyl)-4-(quinazolin-4-yl)piperazine-1-carboximidamide] | >333 |
| Cc1ccccc1NC(=NC#N)N1CCN(c2nc3ccccc3[nH]2)CC1C(C)C (stereo not shown) [Example 1.9, 4-(1H-benzimidazol-2-yl)-N′-cyano-2-isopropyl-N-(2-methylphenyl)piperazine-1-carboximidamide] | >24 |
| Cc1ccccc1NC(=NC#N)N1CCN(c2nc3ccccc3c(=O)[nH]2)CC1C(C)C (stereo not shown) [Example 1.10, N′-cyano-2-isopropyl-N-(2-methylphenyl)-4-(4-oxo-3,4-dihydroquinazolin-2-yl)piperazine-1-carboximidamide] | >233 |
| Cc1ccccc1NC(=NC#N)N1CCN(c2ncnc3[nH]ccc23)CC1C(C)C (stereo not shown) [Example 1.11, N′-cyano-2-isopropyl-N-(2-methylphenyl)-4-(7H-pyrrolo[2,3-d]pyrimidin-4-yl)piperazine-1-carboximidamide] | >52 |
| CCC1CN(c2cnc3ccccc3n2)CCN1/C(=N\C#N)Nc1ccccc1C (stereo not shown) [Example 1.44, N′-cyano-2-ethyl-N-(2-methylphenyl)-4-(quinoxalin-2-yl)piperazine-1-carboximidamide] | 351 |
| Cc1ccccc1N/C(=N/C#N)N1CCN(c2cnc3cc(F)ccc3n2)CC1C(C)C (stereo not shown) [Example 1.54, N′-cyano-4-(6-fluoroquinoxalin-2-yl)-2-isopropyl-N-(2-methylphenyl)piperazine-1-carboximidamide] | >113 |
